Assay results: patent US4670540A (Ajinomoto Co., Inc., priority 1984, dated 1987)
Some peptides are written in HELM: one residue between dots, names in brackets for other building blocks, links after the first $.

Test: general procedure: solution-phase peptide synthesis; WSCI/HOBt

Work on “PEPTIDE1{F.G.G.R.I.D.R.I.G.A.Q.S.G.L.G.[Asu].N.S.F.R.Y}$PEPTIDE1,PEPTIDE1,1:R1-16:R3$$$V2.0” yielded a step yield (late stage modification step, run 1) of 95% and a step yield (late stage modification step, run 2) of 8%.
For “Boc-Phe-Gly-Gly-Arg(Tos)-Ile-Asp(OChx)-Arg(Tos)-Ile-Gly-OPac”, the step yield (coupling step) was 95%.
“Boc-Ala-Gly-Ser(Bzl)-Gly-Leu-GlyAsu[Phe-Gly-Gly-Arg(Tos)-Ile-Asp(OChx)-Arg(Tos)-Ile-Gly-OPac]-Asn-Ser(Bzl)-Phe-Arg(Tos)-Tyr(Cl2 Bzl)-OBzl” gave a step yield (coupling step) of 91%.
“Boc-Ala-Gln-Ser(Bzl)-Gly-Leu-Gly-Asu[Phe-Gly-Gly-Arg(Tos)-Ile-Asp(OChx)-Arg(Tos)-Ile-GlyOH]-Asn-Ser(Bzl)-Phe-Arg(Tos)-Tyr(Cl2 Bzl)-OBzl” gave a step yield (late stage modification step) of 94%.
